Data source: PubChem BioAssay AID504761 (Drosophila RNAi Screening Center, 2011)
Purpose: 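Fly genes whose silencing reduces dengue virus type 2 infection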 (primary screen). System: D.Mel-2 cells from Drosophila. Reagents: long dsRNA against Drosophila genes. Challenge: infection with dengue virus type 2; dose and infection time not stated. Measured: 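Per well on two replicate plates, imaging gave the percent of cells positive for viral envelope protein, ranked by infection, and a nuclear count of cells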. Reading the numbers: infection score: higher = more virus-infected cells; cell count: higher = more cells in the well. Rule for the call: 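Very low infection ranking in both replicate wells (chance probability at most 0.065), then a retest showing infection dropped 1.5-fold or more at p below 0.05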. Meaning of the calls: active = confirmed: knock-down lowers infection; inactive = not picked or not confirmed.
In all, the deposit lists about 22,000 reagents; shown is an unselected part of those with a known target gene and a result. Of all reagents, 116 (0.52%) are marked active. 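Calls depend on retest data that are not deposited; infection was ranked per plate without normalising between plates; the unit of the infection score is not given.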 Raw values vary from plate to plate and are shown uncorrected. Entries without a mark were called inactive. The record does not give: the amount of reagent, the time to read-out.

predicted target	PubChem SID	infection score, replicate 1	infection score, replicate 2	cell count, replicate 1	cell count, replicate 2
MED6 (Mediator complex subunit 6)	SID104196292	26.7	26.9	5855	5971
rno (rhinoceros)	SID104188376	3.54	26.5	6025	6013
ssh (slingshot)	SID104196522	7.43	6.22	5933	6290
ssh (slingshot)	SID104207326	16.9	9.78	4997	3232
fs(1)Ya (female sterile (1) Young arrest)	SID104202415	0.53	2.15	6367	6738
CG10700	SID104181888	3.48	7.88	6444	6798
Arf6 (ADP ribosylation factor 6)	SID104185713	6.21	14.6	6276	4922
CAH13 (Carbonic anhydrase 13)	SID104185920	15.2	8.36	5980	7025
CAH13 (Carbonic anhydrase 13)	SID104203027	15.2	19.5	4995	3433
Spp (Signal peptide peptidase)	SID104180120	0.92	0.53	6110	6612
Frq1 (Frequenin 1)	SID104199753	5.64	15.6	6680	6872
Frq1 (Frequenin 1)	SID104203985	4.4	2.35	6312	5951

Next part, starting with the last 2 of the part before.
predicted target	PubChem SID	infection score, replicate 1	infection score, replicate 2	cell count, replicate 1	cell count, replicate 2
Frq1 (Frequenin 1)	SID104199753	5.64	15.6	6680	6872
Frq1 (Frequenin 1)	SID104203985	4.4	2.35	6312	5951
Fkbp14 (FK506-binding protein 14)	SID104184407	9.64	5.77	6451	6483
CG10910	SID104185799	0.28	32.2	353	6550
CG10910	SID104207849	8.83		1994	339
CG18599	SID104202478	2.17	2.73	6345	6658
CG18599	SID104204367	18.7	6.69	5152	5847
CG30286	SID104183862	12.5	19.5	4409	4818
CG14273	SID104182169	5.89	12.6	5856	5000
CG14273	SID104205791	32.3	14.9	5741	6718
Dro (Drosocin)	SID104187198	14	12.3	6463	3414
CG17129	SID104188300	14.1	2.03	6328	6549
Syt14 (Synaptotagmin 14)	SID104192123	8.18	5.28	6759	6138
